Measurements: patent publication US9617302B2 (priority 2011, dated 2017)

The chains behind the UniProt entries cited, without tags or fusion partners. Residues count along the entry.
UniProt Q9HCN6, 21-339 limits assumed: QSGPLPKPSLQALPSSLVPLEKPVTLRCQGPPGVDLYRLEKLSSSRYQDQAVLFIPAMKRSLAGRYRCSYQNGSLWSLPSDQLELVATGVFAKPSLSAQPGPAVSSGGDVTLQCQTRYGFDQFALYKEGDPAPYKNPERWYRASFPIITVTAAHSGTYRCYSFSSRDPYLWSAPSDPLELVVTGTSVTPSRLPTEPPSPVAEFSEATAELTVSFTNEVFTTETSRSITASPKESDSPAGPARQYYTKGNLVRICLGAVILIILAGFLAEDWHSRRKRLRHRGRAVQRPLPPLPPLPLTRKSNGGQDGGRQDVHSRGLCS
UniProt P05556, 21-798 limits assumed: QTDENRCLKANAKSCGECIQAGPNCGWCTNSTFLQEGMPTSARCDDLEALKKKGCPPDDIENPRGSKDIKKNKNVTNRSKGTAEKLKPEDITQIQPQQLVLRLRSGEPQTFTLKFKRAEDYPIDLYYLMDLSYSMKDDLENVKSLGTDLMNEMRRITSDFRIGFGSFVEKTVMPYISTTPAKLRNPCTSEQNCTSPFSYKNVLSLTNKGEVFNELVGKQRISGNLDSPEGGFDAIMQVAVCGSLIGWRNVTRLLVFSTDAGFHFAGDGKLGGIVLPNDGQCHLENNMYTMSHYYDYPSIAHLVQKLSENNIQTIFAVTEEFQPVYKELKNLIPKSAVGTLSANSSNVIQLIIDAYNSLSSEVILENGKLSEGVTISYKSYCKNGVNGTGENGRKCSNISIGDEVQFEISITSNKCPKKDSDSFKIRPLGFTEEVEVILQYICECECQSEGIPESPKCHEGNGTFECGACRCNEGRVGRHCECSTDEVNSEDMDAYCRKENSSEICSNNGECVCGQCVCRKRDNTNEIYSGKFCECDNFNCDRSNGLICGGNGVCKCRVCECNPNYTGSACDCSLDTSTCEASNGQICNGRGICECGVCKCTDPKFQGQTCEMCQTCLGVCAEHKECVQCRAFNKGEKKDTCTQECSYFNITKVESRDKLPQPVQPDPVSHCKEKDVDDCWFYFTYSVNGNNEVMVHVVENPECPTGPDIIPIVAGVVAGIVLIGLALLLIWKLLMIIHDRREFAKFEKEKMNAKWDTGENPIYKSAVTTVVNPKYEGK
UniProt P17301, 30-1181 limits assumed: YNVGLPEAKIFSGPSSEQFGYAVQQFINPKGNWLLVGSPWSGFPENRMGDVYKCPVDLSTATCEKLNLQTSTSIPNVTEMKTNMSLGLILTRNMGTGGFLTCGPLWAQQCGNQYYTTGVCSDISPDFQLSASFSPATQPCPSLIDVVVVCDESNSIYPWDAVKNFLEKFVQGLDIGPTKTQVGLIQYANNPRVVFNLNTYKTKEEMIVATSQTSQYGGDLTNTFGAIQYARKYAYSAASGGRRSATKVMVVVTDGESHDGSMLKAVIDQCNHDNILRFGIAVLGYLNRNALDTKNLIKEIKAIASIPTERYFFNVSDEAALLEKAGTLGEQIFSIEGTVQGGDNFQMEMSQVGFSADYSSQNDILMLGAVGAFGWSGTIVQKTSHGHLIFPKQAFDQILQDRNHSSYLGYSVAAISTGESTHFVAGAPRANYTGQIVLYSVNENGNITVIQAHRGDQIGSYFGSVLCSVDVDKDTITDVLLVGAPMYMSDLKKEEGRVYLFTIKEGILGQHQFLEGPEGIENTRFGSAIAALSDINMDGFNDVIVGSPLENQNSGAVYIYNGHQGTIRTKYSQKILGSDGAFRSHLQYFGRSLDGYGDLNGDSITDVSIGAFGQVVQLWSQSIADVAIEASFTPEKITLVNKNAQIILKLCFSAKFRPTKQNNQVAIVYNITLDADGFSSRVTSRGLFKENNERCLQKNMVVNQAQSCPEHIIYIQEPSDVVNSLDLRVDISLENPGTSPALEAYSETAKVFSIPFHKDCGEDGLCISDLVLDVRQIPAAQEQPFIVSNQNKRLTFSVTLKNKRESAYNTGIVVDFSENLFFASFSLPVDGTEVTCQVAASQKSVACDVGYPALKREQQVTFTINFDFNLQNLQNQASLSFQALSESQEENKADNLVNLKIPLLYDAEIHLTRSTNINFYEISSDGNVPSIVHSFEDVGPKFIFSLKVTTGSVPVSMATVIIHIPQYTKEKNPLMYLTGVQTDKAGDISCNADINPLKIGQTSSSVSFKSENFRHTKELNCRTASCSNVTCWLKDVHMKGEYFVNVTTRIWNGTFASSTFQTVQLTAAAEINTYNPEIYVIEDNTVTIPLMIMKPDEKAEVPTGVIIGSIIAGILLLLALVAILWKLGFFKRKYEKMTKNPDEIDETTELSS
UniProt P07359, 17-652 limits assumed: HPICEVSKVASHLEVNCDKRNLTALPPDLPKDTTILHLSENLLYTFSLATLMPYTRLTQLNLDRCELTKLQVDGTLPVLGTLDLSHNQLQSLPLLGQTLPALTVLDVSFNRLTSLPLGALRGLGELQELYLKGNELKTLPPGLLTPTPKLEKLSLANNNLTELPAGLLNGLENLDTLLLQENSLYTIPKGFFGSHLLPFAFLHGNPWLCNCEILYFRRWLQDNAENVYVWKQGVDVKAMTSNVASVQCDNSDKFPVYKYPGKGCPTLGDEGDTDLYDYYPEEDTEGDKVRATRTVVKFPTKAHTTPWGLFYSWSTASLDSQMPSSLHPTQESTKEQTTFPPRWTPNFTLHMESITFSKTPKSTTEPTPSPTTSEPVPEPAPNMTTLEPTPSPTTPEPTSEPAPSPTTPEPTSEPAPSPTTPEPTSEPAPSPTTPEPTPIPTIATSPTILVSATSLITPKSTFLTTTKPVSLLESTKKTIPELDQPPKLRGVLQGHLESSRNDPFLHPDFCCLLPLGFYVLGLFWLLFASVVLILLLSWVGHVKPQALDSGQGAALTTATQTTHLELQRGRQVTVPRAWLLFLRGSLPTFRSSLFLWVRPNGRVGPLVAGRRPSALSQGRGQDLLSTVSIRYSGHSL
UniProt P13224, 26-206 partner limits assumed: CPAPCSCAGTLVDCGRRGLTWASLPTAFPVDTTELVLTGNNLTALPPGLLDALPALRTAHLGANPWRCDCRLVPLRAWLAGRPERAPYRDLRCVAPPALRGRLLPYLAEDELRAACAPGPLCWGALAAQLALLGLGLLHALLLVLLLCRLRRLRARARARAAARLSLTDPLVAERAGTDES
UniProt P14770, 17-177 partner limits assumed: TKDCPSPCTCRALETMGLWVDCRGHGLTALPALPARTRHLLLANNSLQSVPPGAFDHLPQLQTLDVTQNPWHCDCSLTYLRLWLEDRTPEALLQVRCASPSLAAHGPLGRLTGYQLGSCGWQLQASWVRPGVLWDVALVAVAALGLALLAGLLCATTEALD
UniProt P30273, 19-86 partner limits assumed: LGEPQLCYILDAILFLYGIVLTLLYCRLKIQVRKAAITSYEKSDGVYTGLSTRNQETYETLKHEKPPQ

Tests used:
[1] = system: washed platelets; test: Ristocetin-induced platelet activation/agglutination; type: cell-based, human; conditions: 50 μg/ml; data not shown
[2] = target: GPVI (Homo sapiens, UniProt Q9HCN6); test: Flow cytometry, binding of anti-GPVI mAb to platelets; conditions: CVX C-terminal, various concentrations, 30 min
[3] = target: α2β1 integrin (Homo sapiens, UniProt P05556+P17301); test: Flow cytometry, binding of anti-α2β1 integrin mAb to platelets; conditions: CVX C-terminal, various concentrations, 30 min
[4] = target: GPIb (Homo sapiens, UniProt P07359); test: Flow cytometry, binding of anti-GPIb mAb to platelets; conditions: CVX C-terminal, various concentrations, 30 min
[5] = system: washed platelets; test: Collagen-induced aggregation of washed platelets; type: cell-based, human; conditions: peptide at 100 μg/ml, preincubated 37° C. 3 min; collagen 2 μg/ml

Substance	Inhibitory effect on ristocetin-induced platelet activation [1]	Binding of anti-GPVI Ab 6B12 to platelets [2]	Binding of anti-integrin α2β1 mAb MAB1998 to platelets [3]	Binding of mAb against GPIb, AP1, to platelets [4]	Inhibition of the collagen-induced aggregation (%) [5] [%]
CSLLKKETGFRKWFVASCIGKIPFVCKFPPQC	about 20%	significantly inhibited	not affected	not affected	–
EEFECLISRTFDNQWLSAPCSDTYSFVCKFEA	about 20%	significantly inhibited	not affected	not affected	–
RKWFVA	–	–	–	–	28.66 ± 5.10

Some compounds may have been tested in ways that are not shown here.
